A mixed list of measured activities; the numbers were collected in NIAID ChemDB.

All rows: whole-cell or culture tests; agent: Mycobacterium tuberculosis

MIC bound comes from a single tested concentration. Rows are shuffled and stem from different studies. Blank or dashed fields: not listed here. MIC50, MIC90 and the like: level of inhibition, or share of isolates inhibited. Percent inhibition refers to the dose given; in toxicity tests it is the harm to the cells. ECn is the concentration giving n% inhibition of infection, replication or growth.

structure	dose	read-out	mutations	cells	strain or isolate	read by	value
O=C(CNc1cccc([N+](=O)[O-])c1)Nn1c(-c2ccccc2)nc2ccccc2c1=O		MIC bound			H37Rv	BACTEC	>12.5 µg/mL
CO[C@H]1/C=C/O[C@@]2(C)Oc3c(C)c(O)c4c(O)c(c(SCN5CCCC5)c(O)c4c3C2=O)NC(=O)/C(C)=C\C=C\[C@H](C)[C@H](O)[C@@H](C)[C@@H](O)[C@@H](C)[C@H](OC(C)=O)[C@@H]1C		MIC					0.05 µg/mL
O=C(Cc1ccccc1)N[C@@H]1C(=O)N2C3=C(CSC12)CN(C(=O)c1ccccc1)OC3=O		MIC			H37Rv		>128 µM
CO[C@H]1/C=C/O[C@@]2(C)Oc3c(C)c(O)c4c(O)c(cc(O)c4c3C2=O)NC(=O)/C(C)=C\C=C\[C@H](C)[C@H](O)[C@@H](C)[C@@H](O)[C@@H](C)[C@H](OC(C)=O)[C@@H]1C		MIC					25 µg/mL
CCN(CC)CC[n+]1ccc2c(C)c3[nH]c4ccc(O)cc4c3c(C)c2c1		MIC		VERO	H37Rv		6.25 µg/mL
CC1(C)CCc2c(c3ccccc3c3[nH]c(-c4c[nH]c5ccccc45)nc23)O1		MIC			H37Rv	resazurin	1.56 µg/mL
C[C@H]1COc2c(N3CCN(C)CC3)c(F)cc3c(=O)c(C(=O)O)cn1c23		MIC	gyrB mutant fluoroquinolone resistant		FQ-R1	resazurin	10 µg/mL
O=C1OCC(Cc2ccc3c(c2)OCO3)C1Cc1ccc2c(c1)OCO2	128 µg/mL	inhibition			H37Rv	resazurin	80.8%
O=C(Cc1ccccc1)N[C@@H]1C(=O)N2C(C(=O)O)=C(CN(O)C(=O)c3ccc(C(F)(F)F)cc3)CSC12		MIC			H37Rv		86 µM
CC1=CC2(C)C=C(C)C3(OC(c4ccccc4)=C(C#N)C3=N2)C1=O	12.5 µg/mL	inhibition			H37Rv	BACTEC	10%
N[C@@H]1CONC1=O		MIC					10 µg/mL
O=C(CC(=O)Nc1ccc(Cl)cc1)Nc1ccc(Cl)cc1		MIC					4 µM
c1cc2c3c(cccc3c1)NC1(CCCC1)N2	12.8 µg/mL	inhibition			H37Rv	BACTEC	49%
CCCCCc1ccc(Oc2cnccc2N)c(O)c1		MIC100					50 µg/mL
O=C(Nc1ccccc1)C(=O)Nc1ccccc1		MIC					>1000 µM
CCOC(=O)c1ccc2nc(-c3ccc4c(c3)OCO4)[nH]c2c1		MIC			H37Rv	resazurin / fluorescence	>100 µM
O=c1c2c(oc3ccccc13)Oc1oc3ccccc3c(=O)c1C2c1ccc2c(c1)OCO2		MIC bound			H37Rv	BACTEC	>12.5 µg/mL
Cc1c(O)c2c(c3c1O[C@](C)(O)C3=O)C(=O)C=C(N)C2=O		MIC					>20 µg/mL
CCOC(=O)c1ccc2nc(-c3ccc(C(F)(F)F)cc3)[nH]c2c1		EC90			H37Rv	resazurin / fluorescence	>100 µM
CCCCCCCOc1ccc(NC(=O)OCC[NH+]2CCCC2)cc1		MIC			My 331/88		16 µM
CC1(C)Oc2c(c3nc4ccccc4nc3c3ccccc23)C=C1Br		MIC			H37Rv	resazurin	6.25 µg/mL
CCOC(=O)c1ccc2c(c1)nc(-c1ccc(N3CCOCC3)cc1)n2CCN1CCCC1=O		MIC			H37Rv	resazurin / fluorescence	>100 µM
COc1cc(/C=C(\NC(=O)c2ccccc2)c2nc3ccc4c(c3[nH]2)C(=O)c2ccccc2C4=O)cc(OC)c1OC	6.25 µg/mL	inhibition			H37Rv	resazurin	34%
NCCCN1c2ccccc2Sc2ccccc21		MIC			STB-825	resazurin	1 µg/mL
CCCOc1cccc(NC(=O)OCC[NH+]2CCCC2)c1		MIC			My 331/88		500 µM
COc1ccc(C(=O)N(O)CC2=C(C(=O)O)N3C(=O)[C@@H](NC(=O)Cc4ccccc4)C3SC2)cc1		MIC			H37Rv		46.2 µM
CC1CCC2(CC1)SCC(=O)N2NC(=O)C(O)(c1ccccc1)c1ccccc1	6.25 µg/mL	inhibition			H37Rv		0%
O=c1oc2ccccc2c(O)c1C(c1ccc(C(c2c(O)c3ccccc3oc2=O)c2c(O)c3ccccc3oc2=O)cc1)c1c(O)c2ccccc2oc1=O	12.5 µg/mL	inhibition			H37Rv	BACTEC	6%
Cc1ccc(C)n1NC(=O)c1ccccc1		MIC			Erdman		16 µg/mL
CC(C)CCOc1ccc(NC(=S)Nc2ccc(OCCC(C)C)cc2)cc1		MIC			H37Rv		2.5 µg/mL
CCN1C(=O)C(C)c2cc(C(=O)CN3CCN(c4noc5cccc(Cl)c45)CC3)ccc21		MIC			H37Rv	visual reading / absorbance	3.12 µg/mL
O=C(Cc1ccccc1)N[C@@H]1C(=O)N2C(C(=O)O)=C(CN(O)C(=O)c3ccccc3)CSC12		MIC			H37Rv		63.7 µM
CCN1C(=O)Cc2cc(C(=O)CN3CCN(c4ccccn4)CC3)ccc21		MIC			H37Rv	visual reading / absorbance	1.56 µg/mL
CCCCCOc1cccc(NC(=O)OCC[NH+]2CCCC2)c1		MIC			My 331/88		62.5 µM
Oc1ccc(Cl)c2cccnc12		MIC90			100 isolates (drug-sensitive)		0.25 µg/mL
CCOC(=O)c1ccc2nc(-c3ccc(Br)cc3)[nH]c2c1		MIC			H37Rv	resazurin / fluorescence	>100 µM
O=C1O[C@H](CO)[C@H](O)[C@H](O)[C@H]1O	6.25 µg/mL	inhibition			H37Rv	resazurin	10%
CCOC(=O)c1ccc2nc(-c3ccc([N+](=O)[O-])cc3)[nH]c2c1		EC90			H37Rv	resazurin / fluorescence	>100 µM
CO[C@H]1/C=C/O[C@@]2(C)Oc3c(C)c(O)c4c(=O)c(c5oc6cc(N7CCN(CC(C)C)CC7)cc(=O)c6nc5c4c3=C2O)NC(=O)/C(C)=C\C=C\[C@H](C)[C@H](O)[C@@H](C)[C@@H](O)[C@@H](C)[C@H](OC(C)=O)[C@@H]1C		MIC			2227 (rifampicin-resistant)		0.062 µg/mL
CCC(c1cccc2ccccc12)C(C#N)C#N		MIC bound			H37Rv	BACTEC	>12.5 µg/mL
NNC(=O)c1ccncc1		MIC					4 µM
CC1(C)CCc2c(c3ccccc3c3[nH]c(-c4ccccc4)nc23)O1		MIC			ATCC 35338	resazurin	>100 µg/mL
CCOC(=O)c1ccc2c(c1)nc(-c1ccc(O)cc1O)n2CCN1CCCC1=O		EC90			H37Rv	resazurin / fluorescence	>100 µM
CCCCCc1ccc(Oc2ccccc2N)c(O)c1		MIC100					3.13 µg/mL
C[C@@H](O)[C@H](N)C(=O)O		MIC bound			H37Rv	BACTEC	>12.5 µg/mL
NC(N)=N[C@H]1[C@H](O)[C@@H](O)[C@H](O[C@@H]2O[C@H](CO)[C@@H](O)[C@H](O)[C@H]2O)[C@@H](N=C(N)N)[C@@H]1O		MIC			666		50 µg/mL
CCCCN(CCCC)CCCCNc1ccc(C)c2sc3ccccc3c(=O)c12		MIC		VERO	H37Rv	BACTEC	1.6 µg/mL
CC1C(=O)N(C)c2ccc(C(=O)CN3CCN(c4noc5cccc(Cl)c45)CC3)cc21		MIC			H37Rv	visual reading / absorbance	6.25 µg/mL
CCCC1CCC2(CC1)SCC(=O)N2NC(=O)C(O)(c1ccccc1)c1ccccc1	6.25 µg/mL	inhibition			H37Rv		38%
CCOC(=O)c1ccc2c(c1)nc(-c1ccc(O)c(OC)c1)n2CCN1CCCOC1		EC50			H37Rv	resazurin / fluorescence	38.08 µM
Cc1ccc(NC(=O)CC(=O)Nc2ccc(C)c(Cl)c2)cc1Cl		MIC					37 µM
CC1CCCC2(C1)SCC(=O)N2NC(=O)C(O)(c1ccccc1)c1ccccc1	6.25 µg/mL	inhibition			H37Rv		4%
CO[C@H]1/C=C/O[C@@]2(C)Oc3c(C)c(O)c4c(O)c(ccc4c3C2=O)NC(=O)/C(C)=C\C=C\[C@H](C)[C@H](O)[C@@H](C)[C@@H](O)[C@@H](C)[C@H](OC(C)=O)[C@@H]1C		MIC					0.5 µg/mL
COC(=O)C(=O)c1c(-c2ccc(Cl)c(Cl)c2)[nH]c2[nH]n(-c3ccccc3)c(=O)c2c1=O		MIC bound			H37Rv	BACTEC	>12.5 µg/mL
O=C(Cc1ccccc1)N[C@@H]1C(=O)N2C3=C(CSC12)CN(C(=O)c1ccc(C(F)(F)F)cc1)OC3=O		MIC			H37Rv		9.8 µM
CC(C)=CCC1=C(O)C(c2ccccc2)=CC(=O)C1=O		MIC bound			H37Rv	BACTEC	≤128 µg/mL
CCOC(=O)c1ccc2c(c1)nc(-c1ccc(OC)cc1)n2CCN1CCCC1=O		EC90			H37Rv	resazurin / fluorescence	>100 µM
CO[C@H]1/C=C/O[C@@]2(C)Oc3c(C)c(O)c4c(O)c(c(C=O)c(O)c4c3C2=O)NC(=O)/C(C)=C\C=C\[C@H](C)[C@H](O)[C@@H](C)[C@@H](O)[C@@H](C)[C@H](OC(C)=O)[C@@H]1C		MIC					0.1 µg/mL
CCCCCc1ccc(Oc2ccccc2I)c(O)c1		MIC100					25 µg/mL
COc1cc(C2=NN(C(=O)COc3ccc4ccccc4c3)[C@H](Cc3ccccc3)C2)c(C)cc1OCC(=O)O	6.25 µg/mL	inhibition			H37Rv		18%
COc1ccc(C2OCC3C(c4ccc5c(c4)OCO5)OCC23)cc1OC	128 µg/mL	inhibition			H37Rv	resazurin	98.6%
O=C(NN=C1CCCCC1)c1ccncc1		MIC			Erdman		0.03 µg/mL
C=C(C)[C@@H]1CC[C@]2(C(=O)O)CC[C@]3(C)C(CCC4[C@@]5(C)CC[C@@H](O)[C@@](C)(C(=O)O)C5CC[C@]43C)C12		MIC90			H37Rv	resazurin	220 µg/mL
Cc1c(CN2CCN(C)CC2)cc(-c2ccc(Cl)cc2)n1-c1ccc(Cl)cc1		MIC			CIP6431		1.5 µg/mL
CCCCCCCC(=O)NN(Cn1c(=S)sc2ccccc21)Cn1c(=S)sc2ccccc21	12.5 µg/mL	inhibition			H37Rv	BACTEC	33%
Cc1ccc(C)n1NC(=O)c1ccc(Cl)cc1		MIC			Erdman		32 µg/mL
CCCCCCCCOc1ccc(NC(=O)OCC[NH+]2CCCC2)cc1		MIC			My 331/88		32 µM
CCCCCc1ccc(Oc2ccccc2[N+](=O)[O-])c(O)c1		MIC100					12.5 µg/mL
Nc1ccc(C(=O)O)c(O)c1		MIC					0.5 µg/mL
NS(=O)(=O)c1cc2c(cc1Cl)NC=NS2(=O)=O	6.25 µg/mL	inhibition			H37Rv	resazurin	-99%
C[C@]1(COc2ccc(N3CCC(Oc4ccc(OC(F)(F)F)cc4)CC3)cc2)Cn2cc([N+](=O)[O-])nc2O1		MIC90			31 strains (rifampicin-susceptible)		0.012 µg/mL
CC(=O)Oc1c(C)c2c(O)c3c1C1=C(OCOC1=C(C)C3=O)/C(C)=C/[C@@](C)(O)[C@H](O)[C@@H](C)[C@@H](O)[C@H](C(=O)O)[C@H](O)[C@H](C)C(O)[C@H](C)/C=C\C=C(/C)C(=O)N2	128 µg/mL	inhibition			H37Rv	BACTEC	99%
Nc1ccc(C(=O)O)c(O)c1		MIC50			BCG		1.5 µg/mL
O=C(c1cccc(C(=O)c2ccc3c4c(cccc24)C(=O)N(c2ccccc2)C3=O)c1)c1ccc2c3c(cccc13)C(=O)N(c1ccccc1)C2=O		MIC bound			H37Rv	BACTEC	>12.5 µg/mL
CCC1CCC2(CC1)SCC(=O)N2NC(=O)C(O)(c1ccccc1)c1ccccc1	6.25 µg/mL	inhibition			H37Rv		26%
COC1=CC(=N/Cl)/C=CC/1=N\Cl	12.5 µg/mL	inhibition			H37Rv	BACTEC	-6%
Cc1ccc(C)n1NC(=O)c1ccncc1		MIC			Erdman		3.2 µg/mL
O=C(NNC(=S)S)c1ccccc1		MIC bound			H37Rv	BACTEC	>12.5 µg/mL
CO[C@H]1/C=C/O[C@@]2(C)Oc3c(C)c(O)c4c(O)c(c(C=O)c(O)c4c3C2=O)NC(=O)/C(C)=C\C=C\[C@H](C)[C@H](O)[C@@H](C)[C@@H](O)[C@@H](C)[C@H](O)[C@@H]1C		MIC					0.5 µg/mL
O=C1c2ccccc2-c2c3c(cc4ccnc1c24)OCO3	12.5 µg/mL	inhibition			H37Rv	BACTEC	98%
OCC(Cc1ccc2c(c1)OCO2)C(CO)Cc1ccc2c(c1)OCO2	128 µg/mL	inhibition			H37Rv	resazurin	65%

Repeating the first 6 entries:

| structure | dose | read-out | mutations | cells | strain or isolate | read by | value |
|---|---|---|---|---|---|---|---|
| O=C(CNc1cccc([N+](=O)[O-])c1)Nn1c(-c2ccccc2)nc2ccccc2c1=O |  | MIC bound |  |  | H37Rv | BACTEC | >12.5 µg/mL |
| CO[C@H]1/C=C/O[C@@]2(C)Oc3c(C)c(O)c4c(O)c(c(SCN5CCCC5)c(O)c4c3C2=O)NC(=O)/C(C)=C\C=C\[C@H](C)[C@H](O)[C@@H](C)[C@@H](O)[C@@H](C)[C@H](OC(C)=O)[C@@H]1C |  | MIC |  |  |  |  | 0.05 µg/mL |
| O=C(Cc1ccccc1)N[C@@H]1C(=O)N2C3=C(CSC12)CN(C(=O)c1ccccc1)OC3=O |  | MIC |  |  | H37Rv |  | >128 µM |
| CO[C@H]1/C=C/O[C@@]2(C)Oc3c(C)c(O)c4c(O)c(cc(O)c4c3C2=O)NC(=O)/C(C)=C\C=C\[C@H](C)[C@H](O)[C@@H](C)[C@@H](O)[C@@H](C)[C@H](OC(C)=O)[C@@H]1C |  | MIC |  |  |  |  | 25 µg/mL |
| CCN(CC)CC[n+]1ccc2c(C)c3[nH]c4ccc(O)cc4c3c(C)c2c1 |  | MIC |  | VERO | H37Rv |  | 6.25 µg/mL |
| CC1(C)CCc2c(c3ccccc3c3[nH]c(-c4c[nH]c5ccccc45)nc23)O1 |  | MIC |  |  | H37Rv | resazurin | 1.56 µg/mL |